Pooled drug test results. Numbers come from NIAID ChemDB, via PubChem.

All rows: tests in culture; species: HIV-1

ECn is the concentration giving n% inhibition of infection, replication or growth. Blank or dashed fields: not listed here. Neighbouring rows are from separate reports.

structure	endpoint	setting	cell line	strain	read by	changes	value
O=c1[nH]c(-c2ccc(O)c(O)c2O)nc2ccccc12	EC50		OM-10.1		p24		>51 µM
Cc1cn([C@H]2C[C@H](N=[N+]=[N-])[C@@H](CO)O2)c(=O)[nH]c1=O	EC50		MT-4	IIIB	MTT		0.0071 µM
Cc1cn([C@H]2C[C@H](N=[N+]=[N-])[C@@H](CO)O2)c(=O)[nH]c1=O	EC50		MT-4	IIIB	MTT	NNRTI-resistant (RT Y181C)	0.00668 µM
NC(N)=NCCC[C@H](N)C(=O)NC[C@@H]1OC(O[C@H]2[C@@H](O)[C@H](O[C@@H]3[C@@H](O)[C@H](NC(=O)[C@@H](N)CCCN=C(N)N)C[C@H](NC(=O)[C@@H](N)CCCN=C(N)N)[C@H]3O[C@H]3O[C@H](CNC(=O)[C@@H](N)CCCN=C(N)N)[C@@H](O)[C@H](O)[C@H]3NC(=O)[C@@H](N)CCCN=C(N)N)O[C@@H]2CO)[C@H](NC(=O)[C@@H](N)CCCN=C(N)N)[C@@H](O)[C@@H]1O	EC50		MT-4	RF	cytopathic effect / MTT		1.4 µM
Cc1cc(C#N)cc(C)c1Oc1nc(NC2CCN(Cc3cccc(C(N)=O)c3)CC2)nc2sccc12	EC50		MT-4	IIIB	MTT	NNRTI-resistant (RT E138K)	0.00869 µM
C/C(=C(/CCO)SS/C(CCO)=C(\C)N(C=O)Cc1cnc(C)nc1N)N(C=O)Cc1cnc(C)nc1N	EC50		CEM/HIV-1(LAV-1) + CEM	LAV-1	p24		~125 µM
CCCCN1C(=O)C(CC2CCCCC2)NC(=O)C12CCN(Cc1ccc3c(c1)OCCO3)CC2	EC90		PBMC	JR-FL R5	p24		>1 µM
Nc1nc2c(ncn2[C@H]2OC[C@@](F)(CCP(=O)(O)O)[C@H]2F)c(=O)[nH]1	EC50		PBMC	LAI	MTT		43 µM
Cc1nn(-c2ccccc2)c2c1nnn2C(=O)NC(C)(C)C	EC50		MT-4		cytopathic effect / MTT		>200 µM
Fc1cccc(F)c1[C@@H]1SCc2nc3ccccc3n21	EC50		PBMC	IIIB	RT activity		2.32 µM
Cc1cc(C#N)cc(C)c1Oc1nc(Nc2ccc(C#N)cc2)nc(N)c1Br	EC50		MT-4	IIIB	MTT	NNRTI-resistant (RT F227L V106A)	0.0294 µM
CCCC(=O)O[C@H]1CN2CC[C@H](O)[C@@H]2[C@@H](O)[C@@H]1O	EC50		JM	GB8	syncytia		0.15 µg/mL
O=C(O)c1cc(O)cc(O)c1N=Nc1ccc(/C=C/c2ccc(N=Nc3c(O)cc(O)cc3C(=O)O)cc2S(=O)(=O)O)c(S(=O)(=O)O)c1	EC50		Macrophage	IIIB	p24		0.3 µg/mL
O=C(O)C(=O)CC(=O)c1cc(OCc2ccccc2)cc(OCc2ccccc2)c1	EC50		CEM + CEM-SS	LAI	RT activity		0.43 µM
Fc1cccc(F)c1Cn1c(-c2c(F)cccc2F)nc2c(Br)cccc21	EC50		MT-4		cytopathic effect / MTT	RT-V108I	3.2 µM
CCCC(=O)O[C@H]1CN2CC[C@H](O)[C@@H]2[C@@H](O)[C@@H]1O	EC50		JM	GB8	syncytia		0.15 µg/mL
O=C(CCNC(=O)C(=O)/C=C(\O)c1cccn1Cc1ccc(F)cc1)OC[C@@H]1C=C[C@H](n2ccc(=O)[nH]c2=O)O1	EC50		MT-4	IIIB	RT activity		>10 µM
COc1ccc(C(=O)N2CCC(NC(=O)c3cc(O)c(O)c(O)c3)CC2)cc1	EC50		MT-4	IIIB	MTT		>85.7 µM
CCOC(=O)CNc1c([N+]#N)c(C)nn1-c1ccccc1	EC50		MT-4		cytopathic effect / MTT		>122 µM
CCCN(C)C(=O)Oc1nsnc1-c1c(Cl)ccc(C#N)c1Cl	EC50		MT-4	IIIB	cytopathic effect / MTT		0.0073 µM
COC(=O)c1cccc2c1nc(-c1c(F)cccc1F)n2Cc1c(F)cccc1F	EC50		MT-4		cytopathic effect / MTT	RT-Y188H	0.26 µM
Nc1nc(=O)n([C@@H]2CS[C@H](CO)O2)cc1F	EC50		CEM	IIIB	cytopathic effect		0.1 µM
CC(C)(C)NC(=O)[C@@H]1C[C@@H]2CCCC[C@@H]2CN1C[C@@H](O)[C@H](Cc1ccccc1)NC(=O)[C@H](CC(N)=O)NC(=O)c1ccc2ccccc2n1	EC50		H9(HIV-1(IIIB)) + H9	IIIB	p24		0.05 µM
O=C(NC1CCN(C(=O)c2ccc(F)cc2)CC1)c1cc(O)c(O)c(O)c1	EC50		MT-4	IIIB	MTT		>30.8 µM
CCc1cccc2c1nc(-c1c(F)cccc1F)n2Cc1c(F)cccc1F	EC50		MT-4	NL4-3	cytopathic effect / MTT		0.5 µM
Nc1ccc(-c2nc3ccccc3c(=O)[nH]2)cc1	EC50		OM-10.1		p24		11.8 µM
CC(=O)SCCOP(=O)(OCCSC(C)=O)OC[C@@H]1CC[C@H](n2cnc3c(N)ncnc32)O1	EC50		MT-4	LAI	RT activity		0.011 µM
CN(C)c1ccc2cc(S(=O)(=O)N3CCN(C[C@@H](O)C[C@@H](Cc4ccccc4)C(=O)N[C@H]4c5ccccc5C[C@H]4O)[C@H](C(=O)NC(C)(C)C)C3)ccc2n1	EC50		MT-4	IIIB	p24		<0.0125 µM
Cc1cc(C#N)cc(C)c1Oc1nc(NC2CCC(NCc3ccc(Br)cc3)CC2)nc2ccsc12	EC50		MT-4	IIIB	MTT	NNRTI-resistant (RT Y188L)	>3.45 µM
CN(C)c1cccc2c1nc(-c1c(F)cccc1F)n2Cc1c(F)cccc1F	EC50		MT-4		cytopathic effect / MTT	RT-V108I	3.2 µM
Nc1ncn([C@H]2C[C@H](O)[C@@H](CO)O2)c(=O)n1	EC50		CEM	I-232	antigen		<0.1 µM
Cc1cn([C@H]2CC[C@@H](CO)O2)c(=O)n(N)c1=O	EC50		CEM-C113 + CEM/C113	BRU	cytopathic effect / MTT		>100 µM
O[C@H]1[C@H](O)[C@@H](O)CN2CC[C@H](O)[C@H]12	EC50		HeLa + HELA CD4+		syncytia		10.97 µg/mL
Cc1nn(-c2ccccc2)c2c1nnn2[C@@H]1O[C@H](CO)[C@@H](O)[C@H]1O	EC50		MT-4		cytopathic effect / MTT		>145 µM
Cc1cn([C@H]2C[C@H](N=[N+]=[N-])[C@@H](CO)O2)c(=O)[nH]c1=O	EC50		PBMC	LAI	MTT		0.0672 µM
CC(C)c1nc(CN(C)C(=O)N[C@H](C(=O)N[C@@H](Cc2ccccc2)C[C@H](O)[C@H](Cc2ccccc2)NC(=O)OCc2cncs2)C(C)C)cs1	EC50		PBL	BaL	p24		0.029 µM
Cc1cn([C@H]2C[C@H](N=[N+]=[N-])[C@@H](CO)O2)c(=O)[nH]c1=O	EC90		PBMC	JR-FL R5	p24		0.157 µM
CCOC(=O)C1CN(Cc2ccc(S(N)(=O)=O)cc2)CCC1Nc1nc(Oc2c(C)cc(C#N)cc2C)c2sccc2n1	EC50		MT-4	IIIB	MTT	NNRTI-resistant (RT F227L V106A)	0.00127 µM
CC(=O)Nc1cccc2c1nc(-c1c(F)cccc1F)n2Cc1c(F)cccc1F	EC50		MT-4		cytopathic effect / MTT	RT-V106A	>20 µM
CC(=O)c1ccc(C)cc1NC(C(N)=O)c1c(Cl)cccc1Cl	EC50		MT-4	IIIB MKC-442-resistant	p24		>137 µM
Cc1ccc(C(=O)N2CCC(NC(=O)c3cc(O)c(O)c(O)c3)CC2)cc1	EC50		MT-4	IIIB	MTT		>29.6 µM
CCCCN1C(=O)[C@@H]([C@H](O)C2CCCCC2)NC(=O)C12CCN(Cc1ccc(Oc3ccc(C(=O)O)cc3)cc1)CC2	EC90		PBMC	JR-FL R5	p24		0.004 µM
CCOC(=O)CNc1nc2c(o1)c(C)nn2-c1ccccc1	EC50		MT-4		cytopathic effect / MTT		>20 µM
CSC[C@H](NC(=O)COc1cccc2cnccc12)C(=O)N[C@@H](Cc1ccccc1)[C@H](O)C(=O)N1CSC(C)(C)[C@H]1C(=O)NC(C)(C)C	EC50		ATH8	RF	cytopathic effect		0.02 µM
Cc1cn([C@H]2C=C[C@@H](COC(=O)CCNC(=O)C(=O)/C=C(\O)c3cccn3Cc3ccc(F)cc3)O2)c(=O)[nH]c1=O	EC50		MT-4	IIIB	RT activity		4.5 µM
Cc1ccc(C(=O)O[C@H]2[C@H](O)[C@H]3[C@@H](O)CCN3C[C@@H]2O)cc1	EC50		JM	GB8	syncytia		3.4 µg/mL
Cc1ccnc2c1NC(=O)c1cccnc1N2C1CC1	EC50		MT-4	IIIB	MTT		0.28 µM
Fc1cccc(F)c1C1SCc2nc3ccccc3n21	EC50		MT-4	MN	cytopathic effect		0.14 µM
O=C(O[C@H]1CN2CC[C@H](O)[C@@H]2[C@@H](O)[C@@H]1O)c1ccc(Br)cc1	EC50		JM	GB8	syncytia		0.75 µg/mL
Nc1ccn([C@H]2CC[C@@H](CO)O2)c(=O)n1	EC50		MT-4	HXB2-D65(RT-K65R)	p24	RT-K65R	5.6 µM
Cc1ccc(C(=O)O[C@H]2[C@H](O)[C@H]3[C@@H](O)CCN3C[C@@H]2O)cc1	EC50		JM	GB8	syncytia		3.4 µg/mL
Cc1cn([C@H]2C[C@H](N=[N+]=[N-])[C@@H](CO)O2)c(=O)[nH]c1=O	EC50		MT-4	NL4-3	cytopathic effect / MTT	AMD3100-resistant	0.008 µM
Cc1ccnc2c1NC(=O)c1cccnc1N2C1CC1	EC50		C8166	NL4-3	antigen	WT	0.01197 µM
Nc1ccc(-c2nc3cc(Cl)ccc3c(=O)[nH]2)cc1	EC50		MT-4		MTT		>170 µM
NS(=O)(=O)c1ccc(Oc2ccc(NC(=O)N[C@@H]3[C@@H]4CCc5c(F)ccc(F)c5[C@@H]43)cc2)cc1	EC50		MT-4 cells	IIIB	ELISA		0.00097 µM
Nc1ncnc2c1ncn2[C@H]1OC[C@@](F)(C=CP(=O)(O)O)[C@H]1F	EC90		PBMC	LAI	MTT		90 µM
Cc1cn([C@H]2C[C@H](N=[N+]=[N-])[C@@H](CO)O2)c(=O)[nH]c1=O	EC50	14 d	CEM(TK-) + CEM TK-	LAV-1	cytopathic effect		>100 µM
Cc1ccc(S(=O)(=O)N2CCC(NC(=O)c3cc(O)c(O)c(O)c3)CC2)cc1	EC50		MT-4	IIIB	MTT		>66.1 µM
Cc1cn([C@H]2C[C@H](N=[N+]=[N-])[C@@H](CO)O2)c(=O)[nH]c1=O	EC50		MAGI + MAGI-CCR5	A031-2	β-galactosidase		0.0162 µM
Nc1ccc(C(=O)N2CCC(NC(=O)c3cc(O)c(O)c(O)c3)CC2)cc1	EC50		MT-4	IIIB	MTT		>35.6 µM
CCn1nnc2c(C)nn(-c3ccccc3)c21	EC50		MT-4		cytopathic effect / MTT		>145 µM
Cc1cn([C@H]2C[C@H](N=[N+]=[N-])[C@@H](CO)O2)c(=O)[nH]c1=O	EC50		MT-4	IIIB	cytopathic effect / p24 / trypan blue		0.014 µM
CN(C)S(=O)(=O)N1CCC(NC(=O)c2cc(O)c(O)c(O)c2)CC1	EC50		MT-4	IIIB	MTT		>34.8 µM
CCc1cc(NCc2nc3c(Cl)ccc(Cl)c3o2)c(=O)[nH]c1C	EC50		MT-4	NL4-3	p24	RT-K101D L100I	>3 µM
CCCN(C)C(=O)Oc1nsnc1-c1c(Cl)ccc(N)c1Cl	EC50		CEM	IIIB	cytopathic effect / MTT		0.024 µM
CO[P@](=O)(c1cc(C)cc(/C=C/C#N)c1)c1c(C(N)=O)[nH]c2ccc(Cl)c(F)c12	EC50		MT-4	BH10			0.0003 µM
CC(=O)Nc1nc(C)c(S(=O)(=O)N2CCC(NC(=O)c3cc(O)c(O)c(O)c3)CC2)s1	EC50		MT-4	IIIB	MTT		>80 µM
CCO/N=C(\c1ccc(Br)cc1)C1CCN(C2(C)CCN(C(=O)c3c(C)cc[n+]([O-])c3C)CC2)CC1	EC50		PBMC	NL4-3 X4	p24		>1 µM

The first 8 rows once more:

structure | endpoint | setting | cell line | strain | read by | changes | value
O=c1[nH]c(-c2ccc(O)c(O)c2O)nc2ccccc12 | EC50 |  | OM-10.1 |  | p24 |  | >51 µM
Cc1cn([C@H]2C[C@H](N=[N+]=[N-])[C@@H](CO)O2)c(=O)[nH]c1=O | EC50 |  | MT-4 | IIIB | MTT |  | 0.0071 µM
Cc1cn([C@H]2C[C@H](N=[N+]=[N-])[C@@H](CO)O2)c(=O)[nH]c1=O | EC50 |  | MT-4 | IIIB | MTT | NNRTI-resistant (RT Y181C) | 0.00668 µM
NC(N)=NCCC[C@H](N)C(=O)NC[C@@H]1OC(O[C@H]2[C@@H](O)[C@H](O[C@@H]3[C@@H](O)[C@H](NC(=O)[C@@H](N)CCCN=C(N)N)C[C@H](NC(=O)[C@@H](N)CCCN=C(N)N)[C@H]3O[C@H]3O[C@H](CNC(=O)[C@@H](N)CCCN=C(N)N)[C@@H](O)[C@H](O)[C@H]3NC(=O)[C@@H](N)CCCN=C(N)N)O[C@@H]2CO)[C@H](NC(=O)[C@@H](N)CCCN=C(N)N)[C@@H](O)[C@@H]1O | EC50 |  | MT-4 | RF | cytopathic effect / MTT |  | 1.4 µM
Cc1cc(C#N)cc(C)c1Oc1nc(NC2CCN(Cc3cccc(C(N)=O)c3)CC2)nc2sccc12 | EC50 |  | MT-4 | IIIB | MTT | NNRTI-resistant (RT E138K) | 0.00869 µM
C/C(=C(/CCO)SS/C(CCO)=C(\C)N(C=O)Cc1cnc(C)nc1N)N(C=O)Cc1cnc(C)nc1N | EC50 |  | CEM/HIV-1(LAV-1) + CEM | LAV-1 | p24 |  | ~125 µM
CCCCN1C(=O)C(CC2CCCCC2)NC(=O)C12CCN(Cc1ccc3c(c1)OCCO3)CC2 | EC90 |  | PBMC | JR-FL R5 | p24 |  | >1 µM
Nc1nc2c(ncn2[C@H]2OC[C@@](F)(CCP(=O)(O)O)[C@H]2F)c(=O)[nH]1 | EC50 |  | PBMC | LAI | MTT |  | 43 µM